# Assay results as given in patent US6806269B1, “2-Amino-benzoxazinones for the treatment of herpes simplex virus” (G. D. Searle & Cop, priority 1999, dated 2004).
# Protein sequences, listed by entry. Tags and fused reporters are not part of them. Residues count along the entry.
# UniProt P10210, 1-288 limits assumed: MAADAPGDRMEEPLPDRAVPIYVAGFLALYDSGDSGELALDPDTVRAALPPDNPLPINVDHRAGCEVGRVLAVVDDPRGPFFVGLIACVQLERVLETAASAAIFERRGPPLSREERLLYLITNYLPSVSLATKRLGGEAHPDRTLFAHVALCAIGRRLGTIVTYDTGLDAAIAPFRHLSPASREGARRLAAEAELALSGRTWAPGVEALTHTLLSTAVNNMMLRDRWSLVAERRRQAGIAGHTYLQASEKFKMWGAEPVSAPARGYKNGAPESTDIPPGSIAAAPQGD
# The match of structure and compound is tentative.
# Assays:
# [1] = target: HSV-1 protease (assemblin) (Human herpesvirus 1, UniProt P10210); assay: Enzymatic assay for HSV-1 protease (assemblin) inhibition (FP assay / HPLC assay); type: biochemical; conditions: read-out: ENZYME IC50; recombinant HSV-1 protease; 30 minute pre-incubation at room temperature; FP or HPLC format not stated
# Description: Enzymatic Assay for HSV-1 Protease (Assemblin) Inhibition
# Assemblin protease activity was determined using fluorescence polarization (FP). The fluorescent substrate was biotin-gamma-aminobutyrate -[…]-DTAF, based on the HSV-1release cleavage site. […] A change in molecular size of fluorescent substrate molecule, which was increased using avidin as a reaction stop reagent, allowed cleavage to be measured by FP. Potential protease inhibitors were dissolved in DMF and then diluted 5-fold in assay buffer. […] The enzyme was diluted to 21.3 ug/mL in assay buffer (1M NaCitrate, 50 mM NaPhosphate, pH 7.4, 100mM NaCl, 20% glycerol, 2 mM TECP) and 48.5 uL were added to each well. […] The plates were read by a fluorescence polarization plate reader. Inhibitor potency was determined by comparison with incubations lacking inhibitor.
# Assays were performed with the peptide substrate H-His-Thr-Tyr-Leu-Gln-Ala-Ser-Glu-Lys-Phe-Lys-Met-Trp-Gly-NH2 (Bachem). This substrate is a HSV-1-amide UL26 Open Reading Frame (242-255) and is derived from the release site of HSV-1 protease. […] The product SEKFMWG was quantified on HPLC using fluorescence detection of tryptophan residue. […]
# HSV-1 protease was purified from baculovirus expressing a DNA construction encoding residues 1-288 of HSV-1 UL26 open reading frame and 32 heterologous amino acid. […]
# HSV-1 = assay: Antiviral assay: plaque reduction assay, HSV-1 in vero cells; conditions: read-out: ANTIVIRUS EC50; 50% inhibition of HSV-1 plaque formation in vero cells, 3 days
# From the text: These complimentary assays tested the ability of a compound to inhibit the production of new virus and the toxicity of the compound to the host cells. It was important that both assays be performed simultaneously in order to compare the results directly since toxicity may indirectly reduce viral replication.
# The antiviral assay was estimated by plaque reduction assay performed by following methods. 1×10^5 of vero cells (African green monkey kidney cell) in 48-well plates were over-night cultured and the medium of this culture was replaced with 200 μl of 2% FBS DMEM containing 2× the desired final cordon of test compounds or no compound as control. The cultures were added 50 μl of 2% FBS DMEM containing with about 50 plaque forming units of HSV-1and next 250 μl of 2% FBS DMEM containing 1% methylcellulose. These infected cultures were incubated at 37° C., 5% CO2 for 3 days until plaques was visible. The cells were fixed and stained simultaneously with 0.025% crystalviolet in 5% formalin solution and plaque were counted. The concentration of test compound which conferred 50% inhibition of plaque formation compared to no compound control was interpolated from the observed data and defined as IC50.
smiles,measurement,setting,value
Cc1c(NC(=O)COCc2ccccc2)ccc2nc(N(C(C)C)C(C)C)oc(=O)c12,IC50,[1],1.5 µM
same,EC50,HSV-1,11.2 µM
